Data on 1 substance can be found in patent US20230120677.

The target in the data set is Clover-SNAP-25-mRuby2 FRET sensor (UniProt P60880).

“WT ALC (full-length wild-type BoNT/A-LC)” showed an Activity 1 (Clover/FRET) Timepoint 1 of 10.2 Clover/FRET, an Activity 2 (Clover/FRET) Timepoint 2 of 11.9 Clover/FRET, an Activity 3 (Clover/FRET) Timepoint 3 of 10.6 Clover/FRET and an Activity 4 (Clover/FRET) Timepoint 4 of 6.98 Clover/FRET. Also, the Activity 5 (Clover/FRET) Timepoint 5 amounted to 9.19 Clover/FRET; the Avg Activity worked out at 9.78; the fluorescence intensity ratio between Clover and mRuby2, co-expression in E. coli was determined as 13.
